Compound potency records, mixed from different reports. Data source: NIAID ChemDB in PubChem.

Common to all: enzyme or target tests; organism: Hepatitis C virus

Conditions beyond the fields shown may differ between rows.

structure,endpoint,target,tested at,result
O=C(NCc1ccccc1F)Nc1ccccc1-c1nc(C(=O)O)c(O)c(=O)[nH]1,IC50,HCV polymerase,-,<100 µM
CNC(=O)c1c(-c2ccc(F)cc2)oc2cc(-c3noc(C)n3)c(OC)cc12,IC50,Nonstructural protein 5B,-,≤0.5 µM
O=C(O)c1ccc2c(c1)nc(-c1ccc3nc(-c4cc5ccccc5o4)ccc3c1)n2C1CCCCC1,inhibition,NS5B polymerase,33 µM,95.5%
CC(Nc1cc(-c2ccc(Cl)cc2)nc2cc(C(=O)O)nn12)c1ccccc1,IC50,RNA-dependent RNA polymerase,-,>10 µM
CNC(=O)c1c(-c2ccc(F)cc2)oc2cc(N(Cc3ccc(OC)cc3)S(C)(=O)=O)c(OCc3ccc(OC)cc3)cc12,IC50,Nonstructural protein 5B,-,≤0.5 µM
Cc1cc(-c2nc3cc(C(=O)O)ccc3n2C2CCCCC2)cc2ccc(-c3ccccc3-c3ccccc3)nc12,inhibition,NS5B polymerase,100 µM,97.78%
O=C(O)c1nc(-c2cccc(OCc3ccccc3C(F)(F)F)c2)[nH]c(=O)c1O,IC50,HCV polymerase,-,<100 µM
c1ccc(COc2cccc(-c3cnc4c(-c5nn[nH]n5)cnn4c3C3CCCCC3)c2)cc1,IC50,RNA-dependent RNA polymerase,-,1–10 µM
Cc1cc(-c2ccccc2Br)nc2ccc(-c3nc4cc(C(=O)O)ccc4n3C3CCCCC3)cc12,inhibition,NS5B polymerase,33 µM,97.79%
CC(C)CNc1cc(-c2ccc(Cl)cc2)nc2cc(C(=O)O)nn12,IC50,RNA-dependent RNA polymerase,-,>10 µM
CNC(=O)c1c(-c2ccc(F)cc2)oc2cc(NC(C)=O)c(OC)cc12,IC50,Nonstructural protein 5B,-,≤0.5 µM
O=C(NCCn1cccn1)Nc1cscc1-c1nc(C(=O)O)c(O)c(=O)[nH]1,IC50,HCV polymerase,-,<25 µM
CCOc1ccc([N+](=O)[O-])cc1-c1ccc2cc(-c3nc4cc(C(=O)O)ccc4n3C3CCCCC3)ccc2n1,inhibition,NS5B polymerase,33 µM,102%
O=C(Nc1ccccc1-c1nc(C(=O)O)c(O)c(=O)[nH]1)c1ccc(OC(F)(F)F)cc1,IC50,HCV polymerase,-,<100 µM
COc1ccc(-c2ccc(C#N)cc2)c(-c2ccc3cc(-c4nc5cc(C(=O)O)ccc5n4C4CCCCC4)ccc3n2)c1,inhibition,NS5B polymerase,33 µM,102%
O=C(O)c1cc2nc(-c3ccc(Cl)cc3)cc(-c3ccc(OCc4ccccc4)cc3)n2n1,IC50,RNA-dependent RNA polymerase,-,1–10 µM
CNC(=O)c1c(-c2ccc(F)cc2)oc2cc(C=O)c(OC(C)C)cc12,IC50,Nonstructural protein 5B,-,≤0.5 µM
O=C(O)c1nc(-c2ccccc2[N+](=O)[O-])[nH]c(=O)c1O,IC50,HCV polymerase,-,<100 µM
COc1cc(-c2cc(-c3ccc(Cl)cc3)nc3cc(C(=O)O)nn23)ccc1Cl,IC50,RNA-dependent RNA polymerase,-,>10 µM
COc1cc(Cl)cc(S(=O)(=O)NC(=O)Nc2cscc2-c2nc(C(=O)O)c(O)c(=O)[nH]2)c1,IC50,HCV polymerase,-,<25 µM
FC(F)(F)c1cccc(COc2ccc(-c3cnc4c(-c5nn[nH]n5)cnn4c3C3CCCCC3)cc2)c1,IC50,RNA-dependent RNA polymerase,-,<1 µM
Nc1ccc(-c2ccc3cc(-c4nc5cc(C(=O)O)ccc5n4C4CCCCC4)ccc3n2)cc1Br,inhibition,NS5B polymerase,33 µM,98.12%
O=C(O)c1cnn2c(C3CCCCC3)c(-c3ccc(C(F)(F)F)cc3)cnc12,IC50,RNA-dependent RNA polymerase,-,>10 µM
CNC(=O)c1ccc(-c2ccc(Cl)cc2)c(-c2ccc3cc(-c4nc5cc(C(=O)O)ccc5n4C4CCCCC4)ccc3n2)c1,inhibition,NS5B polymerase,33 µM,100%
O=C(NCc1ccc2c(c1)OCO2)Nc1ccccc1-c1nc(C(=O)O)c(O)c(=O)[nH]1,IC50,HCV polymerase,-,<100 µM
Cc1cccc(COc2ccc(-c3cnc4c(-c5nn[nH]n5)cnn4c3C3CCCCC3)cc2)c1,IC50,RNA-dependent RNA polymerase,-,1–10 µM
Cc1ccc2cc(-c3ccc4cc(-c5nc6cc(C(=O)O)ccc6n5C5CCCCC5)ccc4n3)ccc2c1,inhibition,NS5B polymerase,100 µM,101%

Repeating the final 2 entries:

{"structure": "Cc1cccc(COc2ccc(-c3cnc4c(-c5nn[nH]n5)cnn4c3C3CCCCC3)cc2)c1", "endpoint": "IC50", "target": "RNA-dependent RNA polymerase", "result": "1–10 µM"}
{"structure": "Cc1ccc2cc(-c3ccc4cc(-c5nc6cc(C(=O)O)ccc6n5C5CCCCC5)ccc4n3)ccc2c1", "endpoint": "inhibition", "target": "NS5B polymerase", "tested at": "100 µM", "result": "101%"}

An empty or dashed field is not shown. Percent inhibition refers to the dose given; in toxicity tests it is the harm to the cells. ICn: concentration for n% inhibition. Two numbers with a dash give a range or band.